Data: article PMC7156659, “Structural insights into the mechanism and inhibition of transglutaminase-induced ubiquitination by the Legionella effector MavC” (2020)

Columns and labels:
MavC (residues 7–384) = assay: ITC; conditions: parent: 5.52

Substance	stoichiometry N (MavC (L. pneumophila))	Kd (MavC (residues 7–384)) [nM]
Lpg2149 (from UniProt Q5ZTL2 1-119)	1	
Lpg2149 (from UniProt Q5ZTL2) F11A; F12A		33.3
Lpg2149 (from UniProt Q5ZTL2) F11K; F12D		69.4
Lpg2149 (from UniProt Q5ZTL2) V20A; L23A; L24A		26
Lpg2149 (from UniProt Q5ZTL2) Y15A; K18A; N19A		20.6
